Experimental data as given in US5756684.

By UniProt entry, the sequences of proteins in these tests, tags left out. Residues count along the entry.
UniProt Q00577, 1-314: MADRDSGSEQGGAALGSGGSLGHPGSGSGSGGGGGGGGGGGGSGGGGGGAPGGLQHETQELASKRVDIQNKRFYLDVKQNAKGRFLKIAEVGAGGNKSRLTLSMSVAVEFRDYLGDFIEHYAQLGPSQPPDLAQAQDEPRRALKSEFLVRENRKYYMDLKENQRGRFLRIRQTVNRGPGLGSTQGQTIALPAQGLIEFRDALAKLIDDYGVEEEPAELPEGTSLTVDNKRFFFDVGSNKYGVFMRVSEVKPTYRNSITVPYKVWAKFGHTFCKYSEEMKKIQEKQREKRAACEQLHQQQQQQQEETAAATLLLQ

Target: GST-Pur-alpha 1-314 (Homo sapiens) (UniProt Q00577)
Assay: EMSA
Conditions: acidic region removed; still shows binding enhancement by Tat; purified recombinant protein; protein details: N-terminal GST; label: 32P end; single-stranded DNA

## GGAGGCGGAGGCGGAGGCGGAGGC [JCV+ (upTAR purine-rich strand dimer)]
  binding result: binds

The exact form of at least one protein or probe is not confirmed.
